A mixed list of measured activities; the numbers were collected in NIAID ChemDB.

Common to all: tests in culture; organism: Herpes simplex virus 1; cell line: E6SM; read-out: EC50

ECn: concentration that inhibits the pathogen or its effect by n%.

compound | strain or isolate | read by | result
COc1ncnc2c1cnn2Cc1cn(CCCCO)nn1 | VWM1837 | - | >400 µg/mL
OC[C@H]1O[C@H](c2ccc(F)cc2F)C[C@@H]1O | KOS/ACV-R | cytopathic effect | >400 µg/mL
CCC(Sc1ncnc2c1cnn2COCC(O)CO)C(N)=O | B2006 (TK-) | cytopathic effect | >400 µg/mL
Nc1ccn([C@H]2CO[C@H](CO)[C@@H](O)C2)c(=O)n1 | TK-/TK+ (VMW 1837) | cytopathic effect | 4 µg/mL
Nc1cc([C@H]2C[C@H](O)[C@@H](CO)O2)c(F)cc1F | KOS/ACV-R | cytopathic effect | >400 µg/mL
OC[C@H]1O[C@@H](c2cc(/C=C/I)c(F)cc2F)C[C@@H]1O | VMW1837 (TK-) | cytopathic effect | >400 µg/mL
CC(Sc1ncnc2c1cnn2COCC(O)CO)C(N)=O | KOS | cytopathic effect | >400 µg/mL
N#CC1=CN(COCCO)S(=O)(=O)N=C1N | KOS | - | >400 µg/mL
Cc1cc([C@@H]2C[C@H](O)[C@@H](CO)O2)c(F)cc1F | KOS/ACV-R | cytopathic effect | >400 µg/mL
Nc1ccnc(O[C@H]2CO[C@H](CO)[C@@H](O)C2)n1 | TK-/B2006 | cytopathic effect | >20 µg/mL
Nc1nc(Cl)c2ccn([C@H]3CO[C@@H](CO)C3)c2n1 | KOS | cytopathic effect | >400 µg/mL
Cc1cc([C@H]2C[C@H](O)[C@@H](CO)O2)c(F)cc1Cl | KOS | cytopathic effect | >400 µg/mL
Nc1nc(N)c2ncn([C@H]3CO[C@H](CO)[C@@H](O)C3)c2n1 | TK-/TK+ (VMW 1837) | cytopathic effect | >20 µg/mL
OC[C@H]1O[C@H](c2cc(I)c(F)cc2F)C[C@@H]1O | KOS/ACV-R | cytopathic effect | >400 µg/mL
CSc1ncnc2c1cnn2Cc1cnnn1CCCCO | VWM1837 | - | >400 µg/mL
CC(=O)OCCOCN1C(=O)C=CN(COCCO)S1(=O)=O | F | - | >400 µg/mL
NC(=O)CSc1ncnc2c1cnn2CCCCO | VWM1837 (TK-) | cytopathic effect | >400 µg/mL
CCc1nc(-n2c(-c3ccccc3)nc3ccc(Br)cc3c2=O)nc(N)c1-c1ccc(Cl)cc1 | KOS ACV (TK-) | cytopathic effect | >16 µg/mL
O=c1[nH]c(=O)n([C@H]2C[C@H](O)[C@@H](CO)O2)cc1/C=C/Br | KOS TK- acyclovir-resistant | cytopathic effect | >80 µg/mL
COc1cc(Cc2cnc(-n3c(-c4ccccc4)nc4ccc(Br)cc4c3=O)nc2N)cc(OC)c1OC | KOS ACV (TK-) | cytopathic effect | 48 µg/mL
CC(=O)OCCOCN1C(=N)/C(=C(\C)O)C(N)=NS1(=O)=O | VMW1837 (TK-) | - | >400 µg/mL
Nc1nc2c(ccn2[C@H]2CO[C@@H](CO)C2)c(=O)[nH]1 | B2006 (TK-) | cytopathic effect | 125 µg/mL
CC(Sc1ncnc2c1cnn2CCCCO)C(N)=O | KOS | cytopathic effect | >400 µg/mL
CCOC(=O)C1=CN(COCCOC(C)=O)S(=O)(=O)N=C1N | B206 (TK-) | - | >400 µg/mL
CCc1nc(-n2c(C)nc3ccc(Br)cc3c2=O)nc(N)c1-c1ccc(Cl)cc1 | KOS ACV (TK-) | cytopathic effect | >16 µg/mL
CC(=O)OCCOCN1C(C)=CC(N)=[N+](c2ccccc2)S1(=O)=O | B206 (TK-) | - | >400 µg/mL
CCc1cc([C@H]2C[C@H](O)[C@@H](CO)O2)c(F)cc1F | KOS ACV-R (TK-) | cytopathic effect | >400 µg/mL
NC1=CC(N)=NS(=O)(=O)N1COCCO | F | - | >400 µg/mL
OCCCCn1nncc1Cn1ncc2c(SCc3ccccc3)ncnc21 | VWM1837 | - | >400 µg/mL
OC[C@H]1O[C@@H](c2cc(Cl)c(F)cc2F)C[C@@H]1O | KOS | cytopathic effect | >400 µg/mL
Nc1nc2c(ncn2[C@H]2C=C[C@@H](CO)[C@H](O)C2)c(=O)[nH]1 | VMW1837 (TK-/TK+) | cytopathic effect | 0.01 µg/mL
O=C1C=CN(COCCO)S(=O)(=O)N1COCCO | B206 (TK-) | - | >400 µg/mL
OCCCCn1cc(Cn2ncc3c(NCc4ccccc4)ncnc32)nn1 | VWM1837 | - | >400 µg/mL
OC[C@H]1O[C@H](c2cc(Cl)c(F)cc2F)C[C@@H]1O | F | cytopathic effect | >400 µg/mL
OC[C@H]1O[C@@H](c2cc(C#CI)c(F)cc2F)C[C@@H]1O | KOS | cytopathic effect | >400 µg/mL
O=c1c2ncn(COC(CO)CO)c2nc2[nH]c(-c3ccccc3)cn12 | F | cytopathic effect | 0.005 µg/mL

The last 4 rows once more:

compound	strain or isolate	read by	result
OCCCCn1cc(Cn2ncc3c(NCc4ccccc4)ncnc32)nn1	VWM1837	-	>400 µg/mL
OC[C@H]1O[C@H](c2cc(Cl)c(F)cc2F)C[C@@H]1O	F	cytopathic effect	>400 µg/mL
OC[C@H]1O[C@@H](c2cc(C#CI)c(F)cc2F)C[C@@H]1O	KOS	cytopathic effect	>400 µg/mL
O=c1c2ncn(COC(CO)CO)c2nc2[nH]c(-c3ccccc3)cn12	F	cytopathic effect	0.005 µg/mL

Blank or dashed fields: not listed here. Neighbouring rows are from separate reports.